The test system of the test is SARS-CoV-2 (BA.2). As to the kind of experiment: Plaque reduction assay in VeroE6-TMPRSS2. Type of test: cell-based. The note with it: Severe acute respiratory syndrome coronavirus 2.

Compound `COC[C@@H](NC(=O)C1CCCC(F)(F)C1)C(=O)N[C@H](Cc1ccccc1)C(=O)C(=O)NCc1nccs1` (stereo partly drawn) [SY110, N-((R)-1-(((R)-3,4-dioxo-1-phenyl-4-((thiazol-2-ylmethyl)amino)butan-2-yl)amino)-3-methoxy-1-oxopropan-2-yl)-3,3-difluorocyclohexane-1-carboxamide] yielded an EC50 of 384 nM.

For the origin of these results see PMC10018608 (Signal Transduction and Targeted Therapy, 2023).
